Compound potency records, mixed from different reports. Data source: NIAID ChemDB in PubChem.

Common to all: whole-cell or culture tests; species: Influenza B virus; read by: plaque count; read-out: EC50

a–b is a range or a potency band. An empty or dashed field is not shown. Rows are shuffled and stem from different studies. ECn is the concentration giving n% inhibition of infection, replication or growth.

| smiles | strain or isolate | cells | value |
|---|---|---|---|
| CC(C)C1CC(CO)(CNc2cc(Cl)nc(N)n2)C1 | B/GIFU/2/73 | MDCK | 2.1–2.5 µM |
| CC(C)[C@H]1CCC2C(N)C1[C@@H](C)[C@H]2C | - | MDCK | 61.6 µM |
| CCCN(CCc1ccccc1OC)C(=O)[C@@H]1OC(C(=O)O)=C[C@H](N)[C@H]1NC(C)=O | - | - | 9 µg/mL |
| CCOC(=O)NC(N)=N[C@H]1C=C(C(=O)O)O[C@@H]([C@H](O)[C@H](O)CO)[C@@H]1NC(C)=O | B/Victoria/102/85 | MDCK | 0.5 µg/mL |
| CCCN(CCc1ccc(OC)cc1)C(=O)[C@@H]1OC(C(=O)O)=C[C@H](N)[C@H]1NC(C)=O | - | - | 3.6 µg/mL |
| C/C=C\[C@@H]1C[C@H](C(=O)O)N[C@H]1[C@@H](NC(C)=O)[C@](C)(CCC)OC | Isolate G26 | MDCK | <0.01 µg/mL |
| CC[C@H]1C2CCCC(C2N)[C@H]1C | - | MDCK | >100 µM |
| CC(=O)N[C@@H]1[C@@H](N)C=C(C(=O)O)O[C@H]1C(=O)N(CCc1ccccc1)CC(=O)O | - | - | 11.5 µg/mL |
| CCCOc1ccccc1CNC(=O)c1ccc2cnccc2n1 | - | - | 3.2 µg/mL |
| Nc1nc(Cl)c(N)c(NCC2(CO)CC(CCCc3ccccc3)C2)n1 | B/GIFU/2/73 | MDCK | 0.016–0.027 µM |
| C[C@H](CO)[C@@H](OC(=O)NCCCCNCCN)[C@@H]1OC(C(=O)O)=C[C@H](N=C(N)N)[C@H]1NC(=O)O | Victoria | MDCK | 0.27 µg/mL |
| CCC(CC)O[C@@H]1C=C(C(=O)O)C[C@H](N)[C@H]1NC(C)=O | B/HONG KONG/5/72 | MDCK | 0.155 µM |
| C[C@H](CO)[C@@H](OC(=O)NCCO[C@@H]1O[C@@H](CO)[C@H](O)[C@@H](O)[C@H]1O)[C@@H]1OC(C(=O)O)=C[C@H](N=C(N)N)[C@H]1NC(=O)O | Victoria | MDCK | 0.88 µg/mL |
| CC(=O)N[C@@H]1[C@@H](N)C=C(C(=O)O)O[C@H]1C(=O)N(CCN=[N+]=[N-])CCc1ccccc1 | - | - | 23 µg/mL |
| C[C@H](CO)[C@@H](OC(N)=O)[C@@H]1OC(C(=O)O)=C[C@H](N)[C@H]1NC(=O)O | Victoria | MDCK | 0.02 µg/mL |
| Nc1nc2c(ncn2[C@@H]2O[C@H](CO)[C@@H](O)[C@H]2F)c(=O)[nH]1 | B/HONG KONG/73 | CEF | 1 µM |
| CCCNC(=O)O[C@@H]([C@@H]1OC(C(=O)O)=C[C@H](N)[C@H]1NC(=O)O)[C@H](C)CO | Victoria | MDCK | 1.1 µg/mL |
| Nc1nc(Cl)c(C=O)c(NCC2(CO)CC(CCc3ccccc3)C2)n1 | B/GIFU/2/73 | MDCK | 7.5–9.6 µM |
| N#CNc1nncs1 | B/Singapore/3/64 | MDCK | 1.37 µg/mL |
| C[C@H](CO)[C@@H](OC(=O)N(CCCN)CCCCN)[C@@H]1OC(C(=O)O)=C[C@H](N=C(N)N)[C@H]1NC(=O)O | Victoria | MDCK | 0.034 µg/mL |
| CCCCCCCCCN(CCC)C(=O)[C@@H]1OC(C(=O)O)=C[C@H](N=C(N)N)[C@H]1NC(C)=O | - | - | 2.7 µg/mL |
| CCCCCCCNC(=O)O[C@@H]([C@@H]1OC(C(=O)O)=C[C@H](N=C(N)N)[C@H]1NC(=O)O)[C@H](C)CO | Victoria | MDCK | 0.023 µg/mL |
| N#Cc1cc(NC(=O)c2ccccc2)c(=O)n2c1[nH]c1ccccc12 | B/Singapore | MDCK | 1.8 µg/mL |
| NC1C2CCCC1CC2 | - | MDCK | 68 µM |
| CCCN(CCc1ccc(O)cc1)C(=O)[C@@H]1OC(C(=O)O)=C[C@H](N)[C@H]1NC(C)=O | - | - | 2 µg/mL |
| Nc1ncc(/C=N/O)c(NCC2(CO)CC(CCc3ccccc3)C2)n1 | B/GIFU/2/73 | MDCK | 0.25–0.51 µM |

Repeating the final 2 entries:

smiles,strain or isolate,cells,value
CCCN(CCc1ccc(O)cc1)C(=O)[C@@H]1OC(C(=O)O)=C[C@H](N)[C@H]1NC(C)=O,-,-,2 µg/mL
Nc1ncc(/C=N/O)c(NCC2(CO)CC(CCc3ccccc3)C2)n1,B/GIFU/2/73,MDCK,0.25–0.51 µM